Compound potency records, mixed from different reports. Data source: NIAID ChemDB in PubChem.

Common to all: whole-cell or culture tests

ECn: concentration that inhibits the pathogen or its effect by n%. A number after MIC or MFC names an inhibition level or a share of isolates. Percent inhibition refers to the dose given; in toxicity tests it is the harm to the cells. An empty or dashed field is not shown. Conditions beyond the fields shown may differ between rows.

smiles	organism	strain	cells	read by	read-out	tested at	result
C=C1CO[C@H]2[C@@H](C)OC(OC[C@@]34C[C@H]5[C@H](C)CC[C@@H]5[C@@]5(C=O)C[C@@H]3C=C(C(C)C)[C@@]45C(=O)O)C[C@@H]12	Cryptococcus neoformans	15 strains (serotype B)			MIC90		1 µg/mL
CC(=O)OC[C@H]1O[C@@H](O[C@@H]2[C@@H](N=[N+]=[N-])[C@H](O)[C@H](O)[C@H]3OC(C)(C)O[C@H]32)[C@H](OC(C)=O)[C@@H](OC(C)=O)[C@H]1OC(C)=O	Cryptococcus neoformans	ATCC 32264		broth dilution / turbidity	inhibition	7.8 µg/mL	0%
CCC(C)CC(C)CCCCCCCCC(=O)N[C@H]1C[C@@H](O)[C@H](NCCN)NC(=O)[C@@H]2[C@@H](O)CCN2C(=O)[C@H]([C@H](O)CCN)NC(=O)[C@H]([C@H](O)[C@@H](O)c2ccc(O)cc2)NC(=O)[C@@H]2C[C@@H](O)CN2C(=O)[C@H]([C@@H](C)O)NC1=O	Cryptococcus gattii	A 47496		broth dilution	MIC		32 µg/mL
NC[C@@H]1O[C@H](O[C@H]2[C@@H](O)[C@H](O[C@@H]3[C@@H](O)[C@H](N)C[C@H](N)[C@H]3O[C@H]3O[C@H](CO)[C@@H](O)[C@H](O)[C@H]3N)O[C@@H]2CO)[C@H](N)[C@@H](O)[C@@H]1O	Cryptosporidium parvum		MDBK	cell count	inhibition	250 µg/mL	68%
CCOC(=O)c1c(C)nc(NCCCNc2ccnc3cc(Cl)ccc23)nc1-c1ccccc1	Cryptococcus neoformans	VM-MCMMPI			MIC99		8 µg/mL
COc1cc(/C=C2\Oc3cc(O)cc(O[C@@H]4O[C@H](CO)[C@@H](O)[C@H](O)[C@H]4O)c3C2=O)cc(OC)c1O	Cryptosporidium parvum				inhibition	25 µM	58%
CC[C@H]1OC(=O)[C@H](C)[C@@H](O[C@H]2C[C@@](C)(OC)[C@@H](O)[C@H](C)O2)[C@H](C)[C@@H](O[C@@H]2O[C@H](C)C[C@H](N(C)C)[C@H]2O)[C@](C)(O)C[C@@H](C)CN(C)[C@H](C)[C@@H](O)[C@]1(C)O	Cryptosporidium parvum		A549		inhibition	2 µg/mL	13%
Oc1ccccc1N=Cc1ccc(F)cc1	Cryptococcus gattii	L-28/02			MIC99		16 µg/mL
CC[C@H]1OC(=O)[C@H](C)[C@@H](O[C@H]2C[C@@](C)(OC)[C@@H](O)[C@H](C)O2)[C@H](C)[C@@H](O[C@@H]2O[C@H](C)C[C@H](N(C)C)[C@H]2O)[C@](C)(O)C[C@@H](C)CN(C)[C@H](C)[C@@H](O)[C@]1(C)O	Cryptosporidium parvum		A549		inhibition	0.5 µg/mL	4.2%
COc1ccc(/C=C2\Oc3cc(O)ccc3C2=O)cc1OC	Cryptosporidium parvum				inhibition	25 µM	93%
Oc1ccccc1N=Cc1cccc(O)c1O	Cryptococcus neoformans	ATCC 24067			MIC99		4 µg/mL
COc1cc(/C=C/C=C\c2ccccc2OC)oc(=O)c1	Cryptosporidium parvum				inhibition	25 µM	11%
CNC(=S)N/N=C(\N)c1ccccn1	Cryptococcus neoformans	ATCC 24067A			MIC100		104 µM
CCn1ncc2c1C(=O)c1c(O)ccc(O)c1C2=O	Cryptosporidium parvum				inhibition	50 µM	<10%
CCN(CC)c1ccc2cc(NNN)c(=O)oc2c1	Cryptococcus gattii			broth dilution	MIC		>990 µM
COc1cc(/C=C/C=C\c2ccccc2)oc(=O)c1C	Cryptosporidium parvum				inhibition	10 µM	0%
NCCCC[C@H](NC(=O)[C@H](Cc1c[nH]c2ccccc12)NC(=O)[C@H](CCCCN)NC(=O)[C@@H](N)CCCCN)C(=O)O	Cryptococcus neoformans	ATCC 32264			inhibition	25 µM	0%
CN[C@H]1CC[C@@H](c2ccc(Cl)c(Cl)c2)c2ccccc21	Cryptococcus neoformans	A2-102-5		broth dilution	MFC		8 µg/mL
NC[C@@H]1O[C@H](O[C@H]2[C@@H](O)[C@H](O[C@@H]3[C@@H](O)[C@H](N)C[C@H](N)[C@H]3O[C@H]3O[C@H](CO)[C@@H](O)[C@H](O)[C@H]3N)O[C@@H]2CO)[C@H](N)[C@@H](O)[C@@H]1O	Cryptosporidium parvum	IOWA	MDCK	luminescence	inhibition	1000 µg/mL	58.4%
C[C@@H](n1cnc2cc(Cl)ccc2c1=O)[C@](O)(Cn1cncn1)c1ccc(F)cc1F	Cryptococcus neoformans	Isolate 133.95			MFC		20 µg/mL
Cn1nc(Cc2ccc(Cl)cc2)c2ccccc2c1=O	Cryptococcus neoformans	Clinical isolate (IM 042074)		broth dilution	MIC80		7.8 µg/mL
C[C@H]([C@](O)(Cn1cncn1)c1ccc(F)cc1F)S(C)(=O)=O	Cryptococcus neoformans	R715 (AZOLE-R)			EC50		1.5 µM
Oc1ccccc1C=Nc1ccccc1O	Cryptococcus neoformans	ATCC 62066			MIC99		2 µg/mL
CCC(C)n1ncn(-c2ccc(N3CCN(c4ccc(OC[C@H]5CO[C@](Cn6cncn6)(c6ccc(Cl)cc6Cl)O5)cc4)CC3)cc2)c1=O	Cryptococcus neoformans	A28201			MFC99		4 µg/mL
COc1cc(/C=C2\Oc3cc(O)cc(O[C@@H]4O[C@H](CO)[C@@H](O)[C@H](O)[C@H]4O)c3C2=O)cc(OC)c1OC(C)=O	Cryptosporidium parvum				EC50		>50 µM
CCC(C)n1ncn(-c2ccc(N3CCN(c4ccc(OC[C@H]5CO[C@](Cn6cncn6)(c6ccc(Cl)cc6Cl)O5)cc4)CC3)cc2)c1=O	Cryptococcus gattii	L48		broth dilution	MIC		2 µg/mL
O=C1/C(=C/c2ccc(O)c(O)c2)Oc2cc(O)ccc21	Cryptosporidium parvum				inhibition	25 µM	76%
Cc1[nH]nc2c1C(=O)c1c(O)ccc(O)c1C2=O	Cryptosporidium parvum				inhibition	50 µM	79%
COc1ccc(/C=C2\Oc3cc(O)cc(O)c3C2=O)cc1O	Cryptosporidium parvum				inhibition	25 µM	65%
C[C@@H](c1nc(-c2ccc(C#N)cc2)cs1)[C@](O)(Cn1cncn1)c1cc(F)ccc1F	Cryptococcus gattii			broth dilution	MIC50		0.063 µg/mL
O=C1/C(=C/c2ccc(O)cc2O)Oc2cc(O)ccc21	Cryptosporidium parvum				inhibition	50 µM	99%
COc1cc(C)cc2c1C(=O)c1cnn(C)c1C2=O	Cryptosporidium parvum				inhibition	10 µM	<10%

For reference, 4 entries again:

smiles,organism,strain,cells,read by,read-out,tested at,result
COc1ccc(/C=C2\Oc3cc(O)cc(O)c3C2=O)cc1O,Cryptosporidium parvum,,,,inhibition,25 µM,65%
COc1cc(/C=C2\Oc3cc(O)cc(O[C@@H]4O[C@H](CO)[C@@H](O)[C@H](O)[C@H]4O)c3C2=O)cc(OC)c1OC(C)=O,Cryptosporidium parvum,,,,EC50,,>50 µM
COc1ccc(/C=C2\Oc3cc(O)ccc3C2=O)cc1OC,Cryptosporidium parvum,,,,inhibition,25 µM,93%
CNC(=S)N/N=C(\N)c1ccccn1,Cryptococcus neoformans,ATCC 24067A,,,MIC100,,104 µM